A mixed list of measured activities; the numbers were collected in NIAID ChemDB.

All rows: tests in culture; organism: Semliki Forest virus; read by: cytopathic effect; measure: EC50

ECn: concentration that inhibits the pathogen or its effect by n%. An empty or dashed field is not shown. Lines come from different laboratories, so protocols vary.

| SMILES | cell line | result |
|---|---|---|
| Cc1c(C(N)=O)ncn1C1OC(CO)C(O)C1O |  | >200 µg/mL |
| O=c1[nH]c(=O)n([C@H]2C[C@H](O)[C@@H](CO)O2)cc1/C=C/Br | VERO | >400 µg/mL |
| Nc1ncnc2c1ncn2[C@@H]1C=C(CO)[C@@H](O)[C@H]1O | VERO | 1 µg/mL |
| Nc1ncnc2c1ncn2[C@@H]1C[C@H](CO)[C@@H](O)C1 | VERO | >100 µg/mL |
| Nc1ncnc2c1ncn2CCOCP(=O)(O)O |  | >185 µM |
| Cc1cn([C@@H]2CC[C@H](CO)C2)c(=O)[nH]c1=O | VERO | >400 µg/mL |
| Nc1ncnc2c1c(Br)cn2[C@@H]1O[C@H](CO)[C@@H](O)[C@H]1O | VERO | >0.1 µg/mL |
| Nc1cc(OC[C@H](CO)OCP(=O)(O)O)nc(N)n1 |  | >15 µM |
| O=c1[nH]cnc2c1ncn2[C@@H]1C=C(CO)[C@@H](O)[C@H]1O | VERO | 300 µg/mL |
| Nc1ncnc2c1ncn2C[C@H](O)CO | VERO | >400 µg/mL |
| CCCC#Cc1c(C(N)=O)ncn1[C@@H]1O[C@H](CO)[C@@H](O)[C@H]1O | VERO | >400 µg/mL |
| Nc1nccc2c1ncn2[C@@H]1C[C@H](CO)[C@@H](O)[C@H]1O | VERO | >400 µg/mL |
| Nc1ncnc2c1ncn2C[C@@H](CO)OCP(=O)(O)O |  | >50 µM |
| NC(=O)c1ncn([C@@H]2O[C@H](CO)[C@@H](O)[C@H]2O)c1C#CCCO | VERO | 20 µg/mL |
| Nc1nccc2c1ncn2[C@@H]1C[C@H](CO)[C@@H](O)[C@H]1O | VERO | >100 µg/mL |
| Nc1nccc2c1ncn2[C@@H]1C=C(CO)[C@@H](O)[C@H]1O | VERO | >400 µg/mL |
| Cc1cn([C@H]2C[C@@H]3OC[C@H]2[C@@H]3CO)c(=O)[nH]c1=O | VERO | >400 µg/mL |
| Nc1ncnc2c1ncn2C[C@H](O)CO | VERO | >400 µg/mL |
| Nc1nccc2c1ncn2[C@@H]1C[C@H](CO)[C@@H](O)[C@H]1O | VERO | 8 µg/mL |
| Nc1nc(Cl)c2ncn(C[C@H]3CC[C@@H](CO)C3)c2n1 | VERO | >40 µg/mL |
| NC(=O)c1ncn([C@@H]2O[C@H](CO)[C@@H](O)[C@H]2O)c1C#CCO | VERO | 10 µg/mL |
| C[C@H]1C[C@@H](n2cnc3c(N)ncnc32)[C@H](O)[C@@H]1O | VERO | >100 µg/mL |
| Nc1nccc2c1ncn2[C@@H]1C[C@H](CO)[C@@H](O)[C@H]1O | VERO | >400 µg/mL |
| Nc1ncnc2c1ncn2[C@H]1[C@H](O)[C@H](O)[C@]2(CO)O[C@H]12 | VERO | 2 µg/mL |

The last 3 rows once more:

SMILES	cell line	result
C[C@H]1C[C@@H](n2cnc3c(N)ncnc32)[C@H](O)[C@@H]1O	VERO	>100 µg/mL
Nc1nccc2c1ncn2[C@@H]1C[C@H](CO)[C@@H](O)[C@H]1O	VERO	>400 µg/mL
Nc1ncnc2c1ncn2[C@H]1[C@H](O)[C@H](O)[C@]2(CO)O[C@H]12	VERO	2 µg/mL